A mixed list of measured activities; the numbers were collected in NIAID ChemDB.

Common to all: growth or infection tests; species: Mycobacterium kansasii

A number after MIC or MFC names an inhibition level or a share of isolates.

SMILES	strain	method	setting	endpoint	value
O=C(Oc1ccc(Cl)cc1C(=O)Nc1cccc(Cl)c1)c1cnccn1	6509/96		21 d	MIC	4 µM
COc1ccc2oc(=S)n(-c3cccc(Cl)c3)c(=S)c2c1	6509/96		14 d	MIC	8 µM
O=C(NNC(=O)c1ccncc1)Nc1ccc(F)c(Cl)c1	My 235/80	broth dilution	7 d	MIC100	>125 µM
O=C(Nc1ccc(C(F)(F)F)cc1)c1ccc(Cl)cc1OS(=O)(=O)c1ccccc1	6509/96		7 d	MIC	4 µM
Fc1ccc(-n2c(=S)oc3ccc(F)cc3c2=S)cc1	6509/96		14 d	MIC	8 µM
O=C(NNC(=O)c1ccncc1)Nc1cc(Cl)cc(Cl)c1	My 6509/96	broth dilution	21 d	MIC100	125 µM
O=C(Oc1cc(Cl)ccc1C(=O)Nc1ccc(C(F)(F)F)cc1)c1cnccn1	235/80		14 d	MIC	1 µM
CCCCCc1ccc(NC(=O)NNC(=O)c2ccncc2)cc1	My 6509/96	broth dilution	21 d	MIC100	125 µM
COc1ncccc1Nc1cc2nc3ccccc3n(-c3ccc(OC(F)(F)F)cc3)c-2cc1=NC1CCC(OC)CC1		fluorescence		MIC90	0.183 µg/mL
Cc1ccc2oc(=S)n(-c3ccc(Br)cc3)c(=S)c2c1	My 235/80		14 d	MIC	4 µM
COc1ccc(NC(=O)c2cc(Cl)ccc2OC(=O)[C@@H](NC(=O)OCc2ccccc2)C(C)C)cc1	DSM 44162	broth dilution		MIC100	62.62 µM
O=C(Nc1ccc(F)cc1)c1cc(Cl)ccc1OS(=O)(=O)c1ccccc1	235/80		7 d	MIC	8 µM
COC(=O)c1cnccn1	6509/96		21 d	MIC	500 µM
NNC(=O)c1ccncc1	My 6509/96	broth dilution	21 d	MIC100	8 µM
O=C(Nc1ccc(F)cc1)c1ccc(Cl)cc1OS(=O)(=O)c1ccccc1	6509/96		7 d	MIC	16 µM
O=C(Oc1ccc(Cl)cc1C(=O)Nc1cccc(F)c1)c1cnccn1	235/80		14 d	MIC	4 µM
COc1ccc(NC(=O)NNC(=O)c2ccncc2)cc1	My 6509/96	broth dilution	7 d	MIC100	>125 µM
O=C(Oc1ccc(Cl)cc1C(=O)Nc1ccc(Cl)cc1)c1cnccn1	235/80		7 d	MIC	2 µM
O=C(Nc1ccc(Cl)cc1)c1cc(Cl)ccc1OS(=O)(=O)c1ccccc1	235/80		21 d	MIC	8 µM
O=C(Oc1cc(Cl)ccc1C(=O)Nc1cccc(Cl)c1)c1cnccn1	235/80		14 d	MIC	4 µM
O=C(NNC(=O)c1ccncc1)Nc1ccc(C(F)(F)F)cc1	My 235/80	broth dilution	21 d	MIC100	>125 µM
O=C(N[C@H](C(=O)Oc1ccc(Cl)cc1C(=O)Nc1ccc(Br)cc1)C1CCCCC1)OCc1ccccc1	DSM 44162	broth dilution		MIC100	13.03 µM
Fc1cc(Nc2nnc(-c3ccncc3)o2)ccc1Br	My 6509/96	broth dilution	14 d	MIC100	>125 µM
O=C(Nc1ccc(C(F)(F)F)cc1)c1cc(Cl)ccc1OS(=O)(=O)c1ccccc1	6509/96		21 d	MIC	125 µM
Fc1cc(Br)ccc1Nc1nnc(-c2ccncc2)o1	My 235/80	broth dilution	14 d	MIC100	>125 µM
S=c1oc2ccc(Br)cc2c(=S)n1-c1ccc(Br)cc1	6509/96		21 d	MIC	4 µM
O=C(NNC(=O)c1ccncc1)Nc1ccc(F)cc1Br	My 6509/96	broth dilution	7 d	MIC100	>125 µM
S=c1oc2ccc(Br)cc2c(=S)n1-c1ccc(Cl)c(Cl)c1	6509/96		21 d	MIC	4 µM
O=C(Oc1ccc(Cl)cc1C(=O)Nc1cccc(C(F)(F)F)c1)c1cnccn1	6509/96		14 d	MIC	8 µM

For reference, 4 entries again:

SMILES | strain | method | setting | endpoint | value
O=C(Oc1cc(Cl)ccc1C(=O)Nc1ccc(C(F)(F)F)cc1)c1cnccn1 | 235/80 |  | 14 d | MIC | 1 µM
S=c1oc2ccc(Br)cc2c(=S)n1-c1ccc(Br)cc1 | 6509/96 |  | 21 d | MIC | 4 µM
O=C(NNC(=O)c1ccncc1)Nc1cc(Cl)cc(Cl)c1 | My 6509/96 | broth dilution | 21 d | MIC100 | 125 µM
O=C(Oc1ccc(Cl)cc1C(=O)Nc1cccc(Cl)c1)c1cnccn1 | 6509/96 |  | 21 d | MIC | 4 µM

Lines come from different laboratories, so protocols vary. Blank or dashed fields: not listed here.